Results of unrelated studies side by side (data: NIAID ChemDB).

All rows: tests in culture; organism: Mycobacterium tuberculosis

MIC50, MIC90 and the like: level of inhibition, or share of isolates inhibited. For "inactive" no cut-off is given. ECn is the concentration giving n% inhibition of infection, replication or growth. Lines come from different laboratories, so protocols vary. Inhibition is in % at the dose shown (toxicity tests: loss of growth or viability). MIC bound: limit read from a one-dose screen. Blank or dashed fields: not listed here.

smiles	strain or isolate	read by	tested at	endpoint	changes	cell line	value
O=C(O)CCc1cnc(C2CCCCC2)[nH]1	H37Rv	-	-	MIC	-	-	>6.25 µg/mL
CCOC1Oc2ccccc2C(=O)/C1=C\Nc1ccc(C(=O)O)c(O)c1	H37Rv	-	-	MIC	-	-	25 µg/mL
Cc1ccc2nnn3c(=N)nc(N)nc3c2c1	H37Rv	BACTEC	-	MIC bound	-	-	>12.5 µg/mL
NNC(=O)c1cnc(C2CCCC2)[nH]1	H37Rv	-	-	MIC	-	-	>6.25 µg/mL
C=C(NC(=O)c1csc(-c2nc3c(cc2O)-c2nc(cs2)C(=O)N[C@@H]([C@@H](C)O)C(=O)N/C(=C(\C)OC)c2nc(cs2)C(=O)N[C@@H]2c4nc(cs4)C(=O)N[C@@H](COC(=O)c4c5c6c(cccc6n4O)COC(=O)[C@@H](O[C@H]4C[C@](C)(O)[C@H](N(C)C)[C@H](C)O4)[C@H]2OC5)c2nc-3cs2)n1)C(N)=O	Clinical Isolate 913	broth dilution	-	MIC	-	-	≤2.5 µM
CC[C@]1(C)C[C@@H](OC(=O)CSC(C)(C)CNC(=O)[C@H](N)CC(C)C)[C@]2(C)[C@H](C)CC[C@]3(CC/C(=N\OC)[C@H]32)[C@@H](C)[C@@H]1O	H37Rv	low oxygen	-	MIC100	-	-	2.76 µg/mL
CC(=O)Cc1oc2c3c(cc(O)c2c(=O)c1CCC(C)(C)O)OC(C)(C)C=C3	-	-	-	MIC	-	-	12.5 µg/mL
NNC(=O)c1nc(C2CCCCC2)[nH]c1C1CCCCC1	H37Rv	-	6.25 µg/mL	inhibition	-	-	37%
CCOC(=O)c1ccc(N=NC2Sc3nc4ccccc4n3C2=O)cc1	H37Rv	BACTEC	12.5 µg/mL	inhibition	-	-	35%
CCOc1ccc(NC(=O)OCCN2CCOCC2)cc1	My 331/88	-	-	MIC	-	-	>1000 µM
COC(=O)c1ccc2oc3ccc([N+](=O)[O-])cc3c(=O)c2c1	H37Rv	-	16 µg/mL	inhibition	-	-	inactive
CCOc1cccc(NC(=O)OCCN(C)C)c1	My 331/88	-	-	MIC	-	-	>250 µM
CCOC1Oc2ccccc2C(=O)/C1=C\Nc1ccc(O)c(C(=O)O)c1	H37Rv	-	-	MIC	-	-	>100 µg/mL
C=C(C)C1CC2C(=O)c3c(O)cc(O)cc3OC2c2c(O)c3c(c(O)c21)OC(C)(C)C=C3	-	-	-	MIC	-	-	50 µg/mL
CO/C(C)=C1/NC(=O)[C@H]([C@@H](C)O)NC(=O)c2csc(n2)-c2cc(O)c(-c3nc(C(=O)NCCCN4CCOCC4)cs3)nc2-c2csc(n2)[C@@H]2COC(=O)c3c4c5c(cccc5n3O)COC(=O)[C@@H](O[C@H]3C[C@](C)(O)[C@H](N(C)C)[C@H](C)O3)[C@@H](OC4)[C@H](NC(=O)c3csc1n3)c1nc(cs1)C(=O)N2	Clinical isolate 10975	broth dilution	-	MIC	Rifampicin- and isoniazid-resistant	-	≤250 µM
O=C1c2ccccc2C(=O)c2c(NC(=O)C(Cl)CCl)cccc21	H37Rv	BACTEC	-	MIC	-	-	12.5 µg/mL
COC(=O)CCc1cnc[nH]1	H37Rv	-	-	MIC	-	-	>6.25 µg/mL
COC(=O)c1ccc2oc3c(C(=O)OC)cc([N+](=O)[O-])cc3c(=O)c2c1	H37Rv	-	16 µg/mL	inhibition	-	-	inactive
CO[C@H]1/C=C/O[C@@]2(C)Oc3c(C)c(O)c4c(O)c(c5[nH]c(N6CCCC6)nc5c4c3C2=O)NC(=O)/C(C)=C\C=C\[C@H](C)[C@H](O)[C@@H](C)[C@@H](O)[C@@H](C)[C@H](OC(C)=O)[C@@H]1C	H37Rv	-	-	MIC	-	-	0.01 µg/mL
NNC(=O)c1ccncc1	RCMB 010126	resazurin	-	MIC	-	-	0.75 µg/mL
Nc1ccc2nc3c(N)ccc(N)c3nc2c1	H37Rv	BACTEC	12.5 µg/mL	inhibition	-	-	87%
CO[C@H]1/C=C/O[C@@]2(C)Oc3c(C)c(O)c4c(O)c(c(N=CN5CCCC5)c(O)c4c3C2=O)NC(=O)/C(C)=C\C=C\[C@H](C)[C@H](O)[C@@H](C)[C@@H](O)[C@@H](C)[C@H](OC(C)=O)[C@@H]1C	H37Rv	-	-	MIC	-	-	0.0012 µg/mL
CCc1nc(Cc2ccccc2)nc2c1nc(-c1ccccc1)n2Nc1ccccc1	H37Rv	BACTEC	-	MIC bound	-	-	>12.5 µg/mL
CCCCCCNC(=O)CCc1cnc(C2C3CC4CC(C3)CC2C4)[nH]1	H37Rv	-	-	MIC	-	-	>6.25 µg/mL
O=Cc1c2c(cc3ccccc13)Nc1ccccc1N2	H37Rv	BACTEC	12.5 µg/mL	inhibition	-	-	2%
COc1ccc2cc1-c1cc(ccc1O)C[C@H]1c3cc4c(cc3CCN1C)Oc1c(OC)cc3c(c1O4)[C@@H](C2)N(C)CC3	H37Rv-PZA-R ATCC 35828	resazurin	-	MIC	-	-	6.2 µg/mL
CCCCCCCCCCOc1cccc(NC(=O)OCC[NH+]2CCCC2)c1	My 331/88	-	-	MIC	-	-	32 µM
CCCN(CC(=O)OCC)c1nc2c([nH]1)c1c(O)c3c(O)c(C)c4c(c32)C(=O)[C@@](C)(O/C=C/[C@H](OC)[C@@H](C)[C@@H](OC(C)=O)[C@H](C)[C@H](O)[C@H](C)[C@@H](O)[C@@H](C)/C=C/C=C(/C)C(=O)N1)O4	H37Rv	-	-	MIC	-	-	0.04 µg/mL
CC1(C)CC[C@]2(C(=O)O)CC[C@]3(C)C(CC[C@@H]4[C@@]5(C)C[C@H](O)CC(C)(C)[C@@H]5CC[C@]43C)[C@@H]2C1	EMB-R (ATCC 35837)	resazurin	-	MIC	-	-	25 µg/mL
C=C[C@]1(C)C[C@@H](OC(=O)CSC(C)(C)CNC[C@H](N)C(C)C)[C@]2(C)[C@H](C)CC[C@]3(CCC(O)[C@H]32)[C@@H](C)[C@@H]1O	H37Rv	resazurin	-	MIC100	-	-	6.25 µg/mL
C/C(=C\CN1C(=O)CN(C)C1=O)CCC1OC1(C)C	H37Rv	BACTEC	-	MIC bound	-	-	>12.5 µg/mL
Cc1c(F)c(N2CCNC(C)C2)cc2c1c(=O)c(C(=O)O)cn2C1CC1	22 strains	-	-	MIC50	-	-	0.8 µg/mL
I.O=C(NNc1ncccn1)c1ccc(C(=O)NNc2ncccn2)cc1	H37Rv	BACTEC	12.5 µg/mL	inhibition	-	-	24%
O=C(N/N=C(/CS(=O)(=O)c1ccccc1)c1ccc(F)cc1)c1ccc([N+](=O)[O-])o1	RCMB 010126	-	-	MIC	-	-	7.81 µg/mL
CCCCN(CCCC)c1nc2c([nH]1)c1c(O)c3c(O)c(C)c4c(c32)C(=O)[C@@](C)(O/C=C/[C@H](OC)[C@@H](C)[C@@H](OC(C)=O)[C@H](C)[C@H](O)[C@H](C)[C@@H](O)[C@@H](C)/C=C/C=C(/C)C(=O)N1)O4	H37Rv	-	-	MIC	-	-	0.01 µg/mL
CCCCCCOc1ccc(NC(=O)OCC[NH+]2CCCC2)cc1	My 331/88	-	-	MIC	-	-	32 µM
COC(=O)c1cc(Cl)nc(Cl)n1	H37Rv	BACTEC	12.5 µg/mL	inhibition	-	-	0%
CC(=O)NC[C@H]1CN(c2ccc(N3CCOCC3)c(F)c2)C(=O)O1	117 strains	-	-	Geometric mean MIC	-	-	0.506 µg/mL
OCC(O)COCCCCCCCCCCCCCC1C=CCC1	H37Rv	BACTEC	12.5 µg/mL	inhibition	-	-	99%
CONc1ncnc2c1n(C/C=C(\C)CC/C=C(\C)CC/C=C(\C)CCC=C(C)C)c[n+]2C	-	-	-	MIC	-	-	3.13 µg/mL
CCOC1Oc2ccc(C)cc2C(=O)/C1=C\Nc1ccc(C(=O)O)c(O)c1	H37Rv	-	-	MIC	-	-	25 µg/mL
CCC(C)[C@@H]1NC(=O)[C@@H](CC(C)C)NC(=O)[C@H](CC(C)C)NC(=O)[C@H](Cc2c[nH]c3ccccc23)NC(=O)[C@@H](CCCN)NC(=O)[C@H](CC(=O)O)NC1=O	H37Rv	-	-	EC50	-	Macrophage	0.8 µM
CCOC1Oc2ccc(Cl)cc2C(=O)/C1=C\Nc1cccc(C(=O)O)c1O	H37Rv	-	-	MIC	-	-	>100 µg/mL
C=C[C@]1(C)C[C@@H](OC(=O)CSC(C)(C)CNC(=O)[C@H](N)CC(C)C)[C@]2(C)[C@H](C)CC[C@]3(CC/C(=N\OC)[C@H]32)[C@@H](C)[C@@H]1O	H37Rv	resazurin	-	MIC100	-	-	8.18 µg/mL
COC(=O)CCc1cnc(C2CCCC2)[nH]1	H37Rv	-	-	MIC	-	-	>6.25 µg/mL
CCn1cc(C(=O)O)c(=O)c2cc(F)c(N3CCNCC3)cc21	H37Ra	-	-	MIC	-	-	1 µg/mL
Cc1ccc2c(c1)P(=O)(c1ccccc1C(O)(C(F)(F)F)C(F)(F)F)c1cc(C)ccc1O2	H37Rv	BACTEC	12.5 µg/mL	inhibition	-	-	0%
Cc1cc([N+](=O)[O-])cc2c(=O)c3ccccc3oc12	H37Rv	-	16 µg/mL	inhibition	-	-	inactive
CCN(CC)COc1ccc(N(c2cc(C)nc3cc(Cl)ccc23)S(=O)[O-])cc1	H37Rv	agar	-	MIC	-	-	>50 µg/mL
O=C(O)c1cocc1C(=O)O	H37Rv	BACTEC	-	MIC bound	-	-	>12.5 µg/mL
CN[C@@H]1[C@@H](O)[C@@H](O[C@@H]2[C@@H](O)[C@H](O[C@H]3O[C@H](CN)CC[C@H]3N)[C@@H](N)C[C@H]2N)OC[C@]1(C)O	H37Rv	-	2 µg/mL	inhibition	-	-	inactive
CC(=O)C1C(=O)OC2C3C=CC(C3)C2C1=O	H37Rv	BACTEC	12.5 µg/mL	inhibition	-	-	31%
O=C(O)c1cc([N+](=O)[O-])c2oc3ccc([N+](=O)[O-])cc3c(=O)c2c1	H37Rv	-	16 µg/mL	inhibition	-	-	inactive
CCOC(=O)c1cnc(C23CC4CC(CC(C4)C2)C3)[nH]1	H37Rv	-	6.25 µg/mL	inhibition	-	-	0%
O=C(c1ccccc1Cl)c1c(O)c2ccccc2oc1=O	H37Rv	BACTEC	12.5 µg/mL	inhibition	-	-	-9%
COC(=O)c1cc2oc3ccc([N+](=O)[O-])cc3c(=O)c2cc1[N+](=O)[O-]	H37Rv	-	4 µg/mL	inhibition	-	-	inactive
C=CC1=C(C)/C(=C/C2=C(C)C(CCC(=O)O)C(CC3=NC(/C=C4\NC(=O)C(C)=C4C=C)=C(C)C3CCC(=O)O)=N2)NC1=O	H37Rv	BACTEC	128 µg/mL	inhibition	-	-	95%
CO[C@H]1/C=C/O[C@@]2(C)Oc3c(C)c(O)c4c(O)c(c(/C=N/N5CCN(C)CC5)c(O)c4c3C2=O)NC(=O)/C(C)=C\C=C\[C@H](C)[C@H](O)[C@@H](C)[C@@H](O)[C@@H](C)[C@H](OC(C)=O)[C@@H]1C	G96V	-	-	MIC	-	-	0.01 µg/mL
CC(=O)Oc1c(C)c2c(O)c3c1C1=C(OCOC1=C(C)C3=O)/C(C)=C/[C@@](C)(O)[C@H](O)[C@@H](C)[C@@H](O)[C@H](C(=O)O)[C@H](O)[C@H](C)C(O)[C@H](C)/C=C\C=C(/C)C(=O)N2	PZA-R	-	-	MIC	-	-	0.8 µg/mL
O=C(N/N=C(/CS(=O)(=O)c1ccccc1)c1ccccc1)c1ccc([N+](=O)[O-])o1	RCMB 010126	-	-	MIC	-	-	15.63 µg/mL
O=C(N/N=C/c1ccccc1)c1cnc(C2C3CC4CC(C3)CC2C4)[nH]1	H37Rv	-	-	MIC	-	-	>6.25 µg/mL
Cc1cc2c(c(C=Nc3ccc([N+](=O)[O-])cc3)c1)OC1(C=C2)Oc2ccccc2C(=O)N1C	H37Rv	resazurin	-	MIC bound	-	-	>6.25 µg/mL
CC1(C)C=Cc2c(cc(O)c3c(O)c4cc5c6c(c(=O)cc(O)c6c4oc23)OC5(C)C)O1	-	-	-	MIC	-	-	25 µg/mL
C=CCOCN1c2cc(OC)c([C@@]3(C(=O)OC)C[C@@H]4CN(CCc5c3[nH]c3ccccc53)C[C@](O)(CC)C4)cc2C23CCN4CC=C[C@](CC)([C@H]42)[C@@H](OC(C)=O)[C@](O)(C(=O)OC)[C@H]13	H37Rv	BACTEC	12.5 µg/mL	inhibition	-	-	25%
CO[C@H]1/C=C/O[C@@]2(C)Oc3c(C)c(O)c4c(O)c(c5[nH]c(N6CCCCC6)nc5c4c3C2=O)NC(=O)/C(C)=C\C=C\[C@H](C)[C@H](O)[C@@H](C)[C@@H](O)[C@@H](C)[C@H](OC(C)=O)[C@@H]1C	H37Rv	-	-	MIC	-	-	0.005 µg/mL
Cc1cnc(C(N)=O)c(=O)[nH]1	H37Rv	BACTEC	-	MIC	-	-	≥12.5 µg/mL
CO[C@H]1/C=C/O[C@@]2(C)Oc3c(C)c(O)c4c(O)c(c5[nH]c(N(C(C)C)C(C)C)nc5c4c3C2=O)NC(=O)/C(C)=C\C=C\[C@H](C)[C@H](O)[C@@H](C)[C@@H](O)[C@@H](C)[C@H](OC(C)=O)[C@@H]1C	H37Rv	-	-	MIC	-	-	0.04 µg/mL
O=C1/C(=C/c2ccccc2)CSC/C1=C/c1ccccc1	H37Rv	BACTEC	-	MIC bound	-	-	>12.5 µg/mL
NNC(=O)c1ccncc1	RCMB 010126	-	-	MIC	-	-	0.4 µg/mL

Repeating the first 6 entries:

smiles,strain or isolate,read by,tested at,endpoint,changes,cell line,value
O=C(O)CCc1cnc(C2CCCCC2)[nH]1,H37Rv,-,-,MIC,-,-,>6.25 µg/mL
CCOC1Oc2ccccc2C(=O)/C1=C\Nc1ccc(C(=O)O)c(O)c1,H37Rv,-,-,MIC,-,-,25 µg/mL
Cc1ccc2nnn3c(=N)nc(N)nc3c2c1,H37Rv,BACTEC,-,MIC bound,-,-,>12.5 µg/mL
NNC(=O)c1cnc(C2CCCC2)[nH]1,H37Rv,-,-,MIC,-,-,>6.25 µg/mL
C=C(NC(=O)c1csc(-c2nc3c(cc2O)-c2nc(cs2)C(=O)N[C@@H]([C@@H](C)O)C(=O)N/C(=C(\C)OC)c2nc(cs2)C(=O)N[C@@H]2c4nc(cs4)C(=O)N[C@@H](COC(=O)c4c5c6c(cccc6n4O)COC(=O)[C@@H](O[C@H]4C[C@](C)(O)[C@H](N(C)C)[C@H](C)O4)[C@H]2OC5)c2nc-3cs2)n1)C(N)=O,Clinical Isolate 913,broth dilution,-,MIC,-,-,≤2.5 µM
CC[C@]1(C)C[C@@H](OC(=O)CSC(C)(C)CNC(=O)[C@H](N)CC(C)C)[C@]2(C)[C@H](C)CC[C@]3(CC/C(=N\OC)[C@H]32)[C@@H](C)[C@@H]1O,H37Rv,low oxygen,-,MIC100,-,-,2.76 µg/mL